Results of unrelated studies side by side (data: NIAID ChemDB).

All rows: tests in culture; organism: HIV-2; method: syncytia; endpoint: EC50

Rows are shuffled and stem from different studies. ECn is the concentration giving n% inhibition of infection, replication or growth.

Cc1ccc[n+]([O-])c1S(=O)(=O)C(C)c1cccc([N+](=O)[O-])c1C ; strain: ROD ; cells: CEM ; value: 60 µg/mL
Nc1cc(OC[C@@H]2O[C@H](CO)[C@@H](O)[C@H]2O)nc(N)n1 ; strain: ROD ; cells: CEM ; value: >100 µM
Nc1ncnc2c1ncn2C/C=C/CN1C(=O)c2ccccc2C1=O ; cells: CEM ; value: >20 µM
Cc1cccc(C(C#N)S(=O)c2cccc[n+]2[O-])c1 ; strain: ROD ; cells: CEM ; value: >0.8 µg/mL
CCCCCCCCCC(=O)Oc1ccc(COP(=O)(OCc2ccc(OC(=O)CCCCCCCCC)cc2)OP(=O)([O-])OC[C@@H]2C=C[C@H](n3ccc(=O)[nH]c3=O)O2)cc1 ; strain: ROD ; cells: CEM ; value: 20 µM
Nc1nc(N)nc(OC[C@H]2CC[C@@H](CO)O2)n1 ; strain: ROD ; cells: CEM ; value: >250 µM
COC(=O)[C@H](C)NP(=O)(OC[C@@H]1C=C[C@H](n2cc(C)c(=O)[nH]c2=O)O1)Oc1ccccc1 ; strain: ROD ; cells: CEM + CEM TK- ; value: 0.075 µM
O=S(=O)(Cc1ccccc1)c1c(Cl)ccc[n+]1[O-] ; strain: ROD ; cells: CEM ; value: >0.8 µg/mL
CCCCCCCC(=O)Oc1ccc(COP(=O)(OCc2ccc(OC(=O)CCCC)cc2)OP(=O)(O)OCC2C=C[C@H](n3cc(C)c(=O)[nH]c3=O)O2)cc1 ; strain: ROD ; cells: CEM ; value: 1.05 µM
O=S(=O)(Cc1cccc(Br)c1)c1cccc[n+]1[O-] ; strain: ROD ; cells: CEM ; value: ≥4 µg/mL
Nc1ccnc(OC[C@H]2CC[C@@H](COCc3ccccc3)O2)n1 ; strain: ROD ; cells: CEM ; value: >250 µM
O=C1c2ccccc2C(=O)N1CC1C2CC3CC(C2)CC1C3 ; strain: ROD ; cells: CEM ; value: >4 µg/mL
O=C(c1cccc([N+](=O)[O-])c1)c1ccc2[nH]c(=O)oc2c1 ; strain: ROD ; cells: CEM ; value: >8 µg/mL
O=c1[nH]c(=O)n([C@H]2C=C[C@@H](CO)O2)cc1I ; strain: ROD ; cells: CEM + CEM TK- ; value: >50 µM
NC/C=C/Cn1ccc(=O)[nH]c1=O ; cells: CEM ; value: >100 µM
Cc1cccc2c1CP(=O)(OC[C@@H]1CC[C@H](n3ccc(=O)[nH]c3=O)O1)CC2 ; strain: ROD ; cells: CEM ; value: >50 µM
NC/C=C/Cn1cc(F)c(=O)[nH]c1=O ; cells: CEM ; value: >100 µM
Cc1cccc(C)c1N1C(=O)c2ccccc2C1=O ; strain: ROD ; cells: CEM ; value: >784 µM
Cn1c(=O)sc2cc(C(=O)c3ccc(Cl)c([N+](=O)[O-])c3)ccc21 ; strain: ROD ; cells: CEM ; value: 3.5 µg/mL
O=c1[nH]c(=O)n([C@H]2C=C[C@@H](CO)O2)cc1Cl ; strain: ROD ; cells: CEM + CEM/0 ; value: >50 µM
Cc1ccccc1C(C#N)S(=O)c1cccc[n+]1[O-] ; strain: ROD ; cells: CEM ; value: >0.8 µg/mL
Cc1cn([C@H]2C=C[C@@H](OC(C(=O)O)P(=O)(O)O)C2)c(=O)[nH]c1=O ; strain: ROD ; cells: CEM ; value: >250 µM
O=C(c1cccc(Cl)c1)c1ccc2[nH]c(=O)oc2c1 ; strain: ROD ; cells: CEM ; value: >8 µg/mL
CC(C)(C)[Si](C)(C)OCC1O[C@@H](NC(=O)NC(=O)c2ccccc2)C(O[Si](C)(C)C(C)(C)C)C12OS(=O)(=O)C=C2N ; strain: ROD ; cells: CEM ; value: >10 µM
Cc1cccc(C)c1N1C(=O)c2ccc(Cl)cc2C1=O ; strain: ROD ; cells: CEM ; value: >138 µM
CCCCCCC(=O)Oc1ccc(COP(=O)(OCc2ccc(OC(=O)CCCCCC)cc2)OP(=O)([O-])OC[C@@H]2C=C[C@H](n3ccc(=O)[nH]c3=O)O2)cc1 ; strain: ROD ; cells: CEM ; value: 30 µM
CCC(=O)c1ccc2c(c1)sc(=O)n2CCN1CCOCC1 ; strain: ROD ; cells: CEM ; value: >40 µg/mL
Nc1nc(Cl)cc(OC[C@H]2CC[C@@H](COCc3ccccc3)O2)n1 ; strain: ROD ; cells: CEM ; value: >50 µM
Cc1ccc(CSc2ccccn2)cc1C ; strain: ROD ; cells: CEM ; value: >4 µg/mL
Cc1cn([C@H]2C[C@H](N=[N+]=[N-])[C@@H](CO)O2)c(=O)[nH]c1=O ; strain: CBL-20 ; cells: C8166 ; value: 0.00662 µM
Nc1cc(OCC2O[C@H](COCc3ccccc3)[C@@H](OCc3ccccc3)[C@H]2OCc2ccccc2)nc(N)n1 ; strain: ROD ; cells: CEM ; value: >10 µM
Nc1ncnc2c1ncn2C/C=C\CN1C(=O)c2ccccc2C1=O ; cells: CEM ; value: >100 µM
O=[N+]([O-])c1ccc[n+]([O-])c1SCc1ccccc1 ; strain: ROD ; cells: CEM ; value: ≥20 µg/mL
CCCCC(=O)Oc1ccc(COP(=O)(OCc2ccc(OC(=O)c3ccc(C)cc3)cc2)OP(=O)(O)OCC2C=C[C@H](n3cc(C)c(=O)[nH]c3=O)O2)cc1 ; strain: ROD ; cells: CEM ; value: 1.05 µM
O=C(c1ccccc1)c1ccc2c(c1)oc(=O)n2CCN1CCOCC1 ; strain: ROD ; cells: CEM ; value: >8 µg/mL
Nc1nccc(OC[C@@H]2O[C@H](CO)[C@@H](O)[C@H]2O)n1 ; strain: ROD ; cells: CEM ; value: >100 µM
CCCCC(=O)c1ccc2c(c1)sc(=O)n2CCN1CCCCC1 ; strain: ROD ; cells: CEM ; value: >8 µg/mL
O=C1c2ccccc2C(=O)N1CC12CC3CC(CC(C3)C1)C2 ; strain: ROD ; cells: CEM ; value: >4 µg/mL
CC(c1ccc(Cl)cc1)S(=O)c1cccc[n+]1[O-] ; strain: ROD ; cells: CEM ; value: >0.8 µg/mL
Cc1cn([C@@H]2C[C@H](OC(C(=O)O)P(=O)(O)O)[C@@H](O)[C@H]2O)c(=O)[nH]c1=O ; strain: ROD ; cells: CEM ; value: >250 µM
Cc1ccc(C(C)S(=O)c2cccc[n+]2[O-])cc1 ; strain: ROD ; cells: CEM ; value: >0.032 µg/mL
COC(=O)C(C)NP(=O)(OC[C@@H]1C=C[C@H](n2cc(I)c(=O)[nH]c2=O)O1)Oc1ccccc1 ; strain: ROD ; cells: CEM + CEM/0 ; value: 7 µM
Cc1ccc(C)c(C(C(N)=O)S(=O)(=O)c2cccc[n+]2[O-])c1 ; strain: ROD ; cells: CEM ; value: >20 µg/mL
N#CCCC12CC3CC(C1)CC(N1C(=O)c4ccccc4C1=O)(C3)C2 ; strain: ROD ; cells: CEM ; value: >4 µg/mL
CCCCCCCCCCCC(=O)Oc1ccc(COP(=O)(OCc2ccc(OC(C)=O)cc2)OP(=O)(O)OCC2C=C[C@H](n3cc(C)c(=O)[nH]c3=O)O2)cc1 ; strain: ROD ; cells: CEM/TK- ; value: 6.31 µM
COC(=O)CC[C@@H]1C[C@H]2CCC[C@](NC(=O)c3ccccc3C(=O)N[C@@]34CCC[C@@H](C[C@H](CCC(=O)OC)C3)C4)(C2)C1 ; strain: ROD ; cells: CEM ; value: >20 µg/mL
Cc1ccc(C)c(CS(=O)c2c(C)ccc[n+]2[O-])c1 ; strain: ROD ; cells: CEM ; value: ≥20 µg/mL
Nc1ccc(C(=O)NC23CC4CC(CC(C4)C2)C3)cc1 ; strain: ROD ; cells: CEM ; value: >73.5 µM
CC(C)c1ccc(C(C)C)c(CS(=O)c2cccc[n+]2[O-])c1 ; strain: ROD ; cells: CEM ; value: ≥4 µg/mL
O=C1c2ccccc2C(=O)N1C1C2CC3CC(C2)CC1C3 ; strain: ROD ; cells: CEM ; value: >4 µg/mL
CCCCCCCCCC(=O)Oc1ccc(COP(=O)(OCc2ccc(OC(=O)CCCC)cc2)OP(=O)(O)OCC2C=C[C@H](n3cc(C)c(=O)[nH]c3=O)O2)cc1 ; strain: ROD ; cells: CEM/TK- ; value: 6.31 µM
Cc1c(N)nc(N)nc1OCCOCP(=O)(O)O ; strain: ROD ; cells: CEM ; value: 1.9 µM
O=[N+]([O-])c1ccc(O)c(CSc2cccc[n+]2[O-])c1 ; strain: ROD ; cells: CEM ; value: >20 µg/mL
O=C(O)c1ccccc1C(=O)NC12CC3CC(C1)CC(C(=O)O)(C3)C2 ; strain: ROD ; cells: CEM ; value: >100 µg/mL
CC(C)C(=O)Oc1ccc(COP(=O)(OCc2ccc(OC(=O)C(C)C)cc2)OP(=O)([O-])OC[C@@H]2C=C[C@H](n3ccc(=O)[nH]c3=O)O2)cc1 ; strain: ROD ; cells: CEM/TK- ; value: ≥50 µM
Nc1ccc2c(c1)C(=O)N(C13CC4CC(CC(C4)C1)C3)C2=O ; strain: ROD ; cells: CEM ; value: 27 µM

6 of the rows above, restated:

compound,strain,cells,value
CCCCCCCCCC(=O)Oc1ccc(COP(=O)(OCc2ccc(OC(=O)CCCC)cc2)OP(=O)(O)OCC2C=C[C@H](n3cc(C)c(=O)[nH]c3=O)O2)cc1,ROD,CEM/TK-,6.31 µM
CC(C)C(=O)Oc1ccc(COP(=O)(OCc2ccc(OC(=O)C(C)C)cc2)OP(=O)([O-])OC[C@@H]2C=C[C@H](n3ccc(=O)[nH]c3=O)O2)cc1,ROD,CEM/TK-,≥50 µM
O=C(c1ccccc1)c1ccc2c(c1)oc(=O)n2CCN1CCOCC1,ROD,CEM,>8 µg/mL
Cc1ccc[n+]([O-])c1S(=O)(=O)C(C)c1cccc([N+](=O)[O-])c1C,ROD,CEM,60 µg/mL
Nc1cc(OCC2O[C@H](COCc3ccccc3)[C@@H](OCc3ccccc3)[C@H]2OCc2ccccc2)nc(N)n1,ROD,CEM,>10 µM
O=C1c2ccccc2C(=O)N1C1C2CC3CC(C2)CC1C3,ROD,CEM,>4 µg/mL